## Potato spindle tuber viroid, loop 6: variant abundance in plants

Data from the supplement of Wu et al. 2024, doi:10.1371/journal.ppat.1012142.

The pool varies loop 6 of the PSTVd intermediate strain in the pattern UNNNCGNNNG; wild type is UGACCGCGAG (upper and lower strand joined, each 5' to 3', the first 5 letters being the upper strand, closing pairs included).

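A pool of all variants was put on leaves of three Nicotiana benthamiana plants. Progeny were sequenced from the inoculated region (day 5), the margin of the inoculated leaf (day 10) and systemic leaves (day 12).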

Values are reads per thousand in the sample; higher means more abundant, 0 means not found. Each site shows the three plants. "Pool" is the share in the plasmid pool used as inoculum, on the same scale. The inoculated region was read from the minus strand, the other sites from the plus strand. IR is the inoculated region, LM the leaf margin, Sys the systemic leaves. The authors trace changes outside the varied positions to PCR and sequencing errors or to mutation in the plant; presence does not show that a variant is infectious alone. For reference, wild type rose from 20.7 per thousand in the pool to 195, 198, 203 (inoculated region), 629, 591, 734 (leaf margin) and 942, 870, 868 (systemic leaves). Samples held 36,220 to 57,551 reads, so the smallest values rest on one or two reads.

sequence,pool,IR,LM,Sys
UUACCGAACG,0.170,0.643 / 0.539 / 0.682,0.166 / 0.177 / 0.0464,0 / 0 / 0
UUACCGAAGG,0.131,0.0869 / 0.108 / 0.184,0 / 0 / 0,0 / 0 / 0
UUACCGAAUG,0.288,0.122 / 0.162 / 0.0738,0.0276 / 0 / 0.0232,0 / 0 / 0
UUACCGACAG,0.327,0.139 / 0.126 / 0.166,0 / 0 / 0,0 / 0 / 0
UUACCGACCG,0.209,0.156 / 0.216 / 0.148,0 / 0 / 0.0232,0 / 0 / 0
UUACCGACGG,0.196,0.191 / 0.180 / 0.240,0 / 0 / 0,0 / 0 / 0
UUACCGACUG,0.301,0.122 / 0.0539 / 0.240,0.0276 / 0 / 0,0 / 0 / 0
UUACCGAGAG,0.275,0.782 / 0.808 / 0.793,0.138 / 0.177 / 0.0928,0 / 0 / 0
UUACCGAGCG,0.157,0.139 / 0.108 / 0.203,0 / 0 / 0.0232,0.0180 / 0.101 / 0
UUACCGAGGG,0.222,0.156 / 0.216 / 0.0738,0 / 0 / 0.0232,0 / 0 / 0
UUACCGAGUG,0.248,0.209 / 0.216 / 0.240,0.0276 / 0 / 0,0 / 0 / 0
UUACCGAUAG,0.275,0.104 / 0.126 / 0.221,0.0276 / 0 / 0.325,0 / 0 / 0
UUACCGAUCG,0.275,0.0521 / 0.0719 / 0.148,0 / 0 / 0.0232,0 / 0 / 0
UUACCGAUGG,0.144,0.156 / 0.126 / 0.148,0 / 0 / 0,0 / 0 / 0
UUACCGAUUG,0.261,0.122 / 0.180 / 0.295,0 / 0 / 0,0 / 0 / 0
UUACCGCAAG,0.0915,0.956 / 0.970 / 1.11,0 / 0.126 / 0.162,0.0539 / 0.121 / 0.0820
UUACCGCACG,0.183,0.730 / 0.916 / 0.590,0.193 / 0.126 / 0.116,0 / 0 / 0
UUACCGCAGG,0.157,0.0521 / 0.144 / 0.203,0.0276 / 0 / 0.0232,0 / 0 / 0
UUACCGCAUG,0.144,0.156 / 0.180 / 0.0738,0 / 0 / 0.0232,0 / 0 / 0
UUACCGCCAG,0.144,0.817 / 0.898 / 0.590,0.0828 / 0.0504 / 0.0928,0 / 0 / 0
UUACCGCCCG,0.170,0.122 / 0.180 / 0.129,0.0276 / 0 / 0.0232,0 / 0 / 0
UUACCGCCGG,0.209,0.0695 / 0.162 / 0.111,0 / 0 / 0.0232,0 / 0 / 0
UUACCGCCUG,0.209,0.226 / 0.216 / 0.166,0.0552 / 0 / 0.0464,0 / 0 / 0
UUACCGCGAG,0.222,14.5 / 19.6 / 19.1,8.48 / 1.54 / 0.325,6.77 / 13.9 / 13.8
UUACCGCGCG,0.196,0.730 / 0.575 / 0.609,0.0828 / 0.0757 / 0.0928,0.0180 / 0.0202 / 0.103
UUACCGCGGG,0.131,0.0348 / 0.144 / 0.221,0.0276 / 0 / 0.0464,0 / 0.101 / 0
UUACCGCGUG,0.0654,0.104 / 0.198 / 0.203,0 / 0 / 0.0232,0 / 0.0404 / 0.0410
UUACCGCUAG,0.144,0.747 / 0.880 / 0.811,0.110 / 0.202 / 0.139,0 / 0 / 0
UUACCGCUCG,0.261,0.122 / 0.126 / 0.203,0 / 0 / 0,0 / 0 / 0
UUACCGCUGG,0.118,0.104 / 0.0359 / 0.148,0.0828 / 0 / 0.0232,0 / 0 / 0
UUACCGCUUG,0.144,0.139 / 0.144 / 0.129,0.0552 / 0 / 0,0 / 0 / 0
UUACCGGAAG,0.131,0.139 / 0.269 / 0.221,0.0276 / 0 / 0.0696,0 / 0 / 0
UUACCGGACG,0.301,0.487 / 0.844 / 0.645,0.0828 / 0.151 / 0,0 / 0 / 0
UUACCGGAGG,0.157,0.104 / 0.126 / 0.0738,0 / 0 / 0.0464,0 / 0 / 0
UUACCGGAUA,0.0131,0 / 0 / 0,0 / 0 / 0,0 / 0 / 0
UUACCGGAUG,0.209,0.104 / 0.108 / 0.203,0.0276 / 0 / 0.0464,0 / 0 / 0.0205
UUACCGGCAG,0.314,0.156 / 0.216 / 0.221,0 / 0 / 0.0232,0 / 0 / 0
UUACCGGCCG,0.157,0.104 / 0.108 / 0.184,0 / 0 / 0.0232,0 / 0 / 0
UUACCGGCGG,0.222,0.0869 / 0.126 / 0.203,0.0552 / 0 / 0.0464,0 / 0 / 0
UUACCGGCUG,0.275,0.0869 / 0.162 / 0.0738,0.0276 / 0 / 0.0232,0 / 0 / 0.0205
UUACCGGGAG,0.261,0.782 / 0.719 / 0.627,0.110 / 0.151 / 0.0928,0.0180 / 0.0606 / 0.0410
UUACCGGGCG,0.105,0.174 / 0.144 / 0.203,0.0276 / 0 / 0.0232,0 / 0 / 0
UUACCGGGGG,0.0523,0.139 / 0.162 / 0.166,0.0276 / 0 / 0.0464,0 / 0 / 0
UUACCGGGUG,0.235,0.0869 / 0.0719 / 0.0922,0 / 0 / 0,0 / 0 / 0
UUACCGGUAG,0.275,0.0695 / 0.108 / 0.148,0 / 0 / 0,0 / 0 / 0
UUACCGGUCG,0.261,0.104 / 0.198 / 0.184,0 / 0 / 0.0232,0 / 0 / 0
UUACCGGUGG,0.248,0.0348 / 0.0719 / 0.148,0.0552 / 0 / 0.0464,0 / 0 / 0
UUACCGGUUG,0.222,0.0869 / 0.144 / 0.0922,0 / 0 / 0.0696,0 / 0 / 0
UUACCGUAAG,0.118,0.747 / 0.790 / 0.664,0.138 / 0.0757 / 0.0928,0 / 0 / 0
UUACCGUACG,0.209,0.521 / 0.629 / 0.479,0.276 / 0.101 / 0.0696,0 / 0 / 0
UUACCGUAGG,0.235,0.0869 / 0.162 / 0.184,0.0552 / 0 / 0.0464,0 / 0 / 0
UUACCGUAUG,0.157,0.139 / 0.198 / 0.240,0.138 / 0 / 0.0464,0 / 0 / 0
UUACCGUCAG,0.209,0.712 / 0.701 / 0.719,0.0828 / 0.0504 / 0.116,0 / 0 / 0
UUACCGUCCG,0.301,0.156 / 0.162 / 0.184,0.0276 / 0 / 0,0 / 0 / 0
UUACCGUCGG,0.222,0.0869 / 0.108 / 0.0922,0.0276 / 0 / 0.0232,0 / 0 / 0
UUACCGUCUG,0.327,0.122 / 0.180 / 0.148,0 / 0 / 0.0464,0 / 0 / 0
UUACCGUGAG,0.248,0.869 / 0.521 / 0.461,0.0552 / 0.0504 / 0.0928,0 / 0 / 0
UUACCGUGCG,0.157,0.209 / 0.0898 / 0.277,0 / 0 / 0,0 / 0 / 0
UUACCGUGGG,0.170,0.0869 / 0.0898 / 0.148,0.0828 / 0 / 0.0232,0 / 0 / 0
UUACCGUGUG,0.314,0.174 / 0.144 / 0.184,0.0276 / 0 / 0,0 / 0 / 0
UUACCGUUAG,0.327,0.0695 / 0.198 / 0.350,0.0552 / 0 / 0.0464,0 / 0 / 0
UUACCGUUCG,0.314,0.104 / 0.108 / 0.166,0.0552 / 0 / 0,0 / 0 / 0
UUACCGUUGG,0.366,0.122 / 0.144 / 0.166,0 / 0 / 0,0 / 0 / 0
UUACCGUUUG,0.418,0.139 / 0.0719 / 0.148,0.0276 / 0 / 0,0 / 0 / 0
UUACCUCGAG,0.0131,0.626 / 0.611 / 0.369,0.138 / 0.0252 / 0.0464,0.0539 / 0.0202 / 0.123
UUACCUUACG,0.0131,0 / 0 / 0,0 / 0 / 0,0 / 0 / 0
UUAGCAAUGG,0.0131,0 / 0 / 0,0 / 0 / 0,0 / 0 / 0
UUAGCAGCGG,0.0131,0 / 0 / 0,0 / 0 / 0,0 / 0 / 0
UUAGCGAAAG,0.118,0.156 / 0.180 / 0.0922,0 / 0 / 0.0232,0 / 0 / 0
UUAGCGAACG,0.288,0.0869 / 0.144 / 0.0738,0.0552 / 0 / 0,0 / 0 / 0